Details in all cases: CC50/EC50
One series deals with DENV. In words: Reduction in viral infection, dengue virus in Vero cells, immunofluorescence (4G2 antibody). The series is classed as cell-based, Dengue virus New Guinea C (NGC).
Another series concerns MERS-CoV. The series is classed as cell-based, MERS virus (MERS-CoV/KOR/KNIH/002_05_2015).
A further series deals with CHIKV. In words: Cytopathic effect reduction, Chikungunya virus in Vero cells, MTT. The series is classed as cell-based. Background: Cytopathic effects are the visible damage that an infection or toxin causes in cultured cells.
The subject of the next series is hCoV (229E). The series is classed as cell-based, Human coronavirus hCoV 229E.
Another series deals with FIPV. In words: Cytopathic effect reduction, FIPV in CRFK cells, MTT. The series is classed as cell-based, feline infectious peritonitis virus (FIPV).

With `O=C(Nc1ccn(C2O[C@H](CO)[C@@H](O)[C@H]2F)c(=O)n1)c1cccnc1` (stereo in doubt) [Example 26, N-(1-((2S,3R,4R,5R)-3-fluoro-4-hydroxy-5-(hydroxymethyl)tetrahydrofuran-2-yl)-2-oxo-1,2-dihydropyrimidin-4-yl)nicotinamide], in the series on DENV, the “SI DENV” value was more than 1.73. Consider `O=C(Nc1ccn(C2O[C@H](CO)[C@@H](O)[C@H]2F)c(=O)n1)c1cccc(-c2ccccc2)n1` (stereo in doubt) [Example 27, N-(1-((2S,3R,4R,5R)-3-fluoro-4-hydroxy-5-(hydroxymethyl)tetrahydrofuran-2-yl)-2-oxo-1,2-dihydropyrimidin-4-yl)-6-phenylpicolinamide], for which, in the series on MERS-CoV, the “SI MERS-CoV” value is reported as 2.71. In addition, in the series with DENV, the “SI DENV” value amounted to 4.71. Consider `Cc1nccc(C(=O)Nc2ccn(C3O[C@H](CO)[C@@H](O)[C@H]3F)c(=O)n2)n1` (stereo in doubt) [Example 29, N-(1-((2S,3R,4R,5R)-3-fluoro-4-hydroxy-5-(hydroxymethyl)tetrahydrofuran-2-yl)-2-oxo-1,2-dihydropyrimidin-4-yl)-2-methylpyrimidin-4-carboxamide], for which the “SI CHIKV” value in the series with CHIKV is more than 4.17. For the compound `O=C(Nc1ccn(C2O[C@H](CO)[C@@H](O)[C@H]2F)c(=O)n1)c1ccc([N+](=O)[O-])cn1` (stereo in doubt) [Example 30, N-(1-((2S,3R,4R,5R)-3-fluoro-4-hydroxy-5-(hydroxymethyl)tetrahydrofuran-2-yl)-2-oxo-1,2-dihydropyrimidin-4-yl)-5-nitropicolinamide], the “SI DENV” value in the series with DENV was more than 1.28. Moreover, the “SI CHIKV” value in the series with CHIKV is more than 1.60. As for `O=C(Nc1ccn(C2O[C@H](CO)[C@@H](O)[C@H]2F)c(=O)n1)c1cccnn1` (stereo in doubt) [Example 33, N-(1-((2S,3R,4R,5R)-3-fluoro-4-hydroxy-5-(hydroxymethyl)tetrahydrofuran-2-yl)-2-oxo-1,2-dihydropyrimidin-4-yl)pyridazine-3-carboxamide], the “SI CHIKV” value with CHIKV was more than 1.16. For the compound `O=C(Nc1ccn(C2O[C@H](CO)[C@@H](O)[C@H]2F)c(=O)n1)c1ccncn1` (stereo in doubt) [Example 36, N-(1-((2S,3R,4R,5R)-3-fluoro-4-hydroxy-5-(hydroxymethyl)tetrahydrofuran-2-yl)-2-oxo-1,2-dihydropyrimidin-4-yl)pyrimidine-4-carboxamide], the “SI CHIKV” value with CHIKV is given as more than 1.73. Same read-out and setting: then `N#Cc1ccc(C(=O)Nc2ccn(C3O[C@H](CO)[C@@H](O)[C@H]3F)c(=O)n2)nc1` (stereo in doubt) [Example 37, 5-cyano-N-(1-((2S,3R,4R,5R)-3-fluoro-4-hydroxy-5-(hydroxymethyl)tetrahydrofuran-2-yl)-2-oxo-1,2-dihydropyrimidin-4-yl)picolinamide], with more than 1.93. `O=C(Nc1ccn([C@@H]2O[C@H](CO)[C@@H](O)C2(F)F)c(=O)n1)c1cccnc1` [Example 1, N-(1-((2R,4R,5R)-3,3-difluoro-4-hydroxy-5-(hydroxymethyl)tetrahydrofuran-2-yl)-2-oxo-1,2-dihydropyrimidin-4-yl)nicotinamide]: the “SI MERS-CoV” value with MERS-CoV was more than 9.62. In the series on DENV, the “SI DENV” value is more than 29.24. For the compound `O=C(Nc1ccn([C@@H]2O[C@H](CO)[C@@H](O)C2(F)F)c(=O)n1)c1ccccn1` [Example 2, N-(1-((2R,4R,5R)-3,3-difluoro-4-hydroxy-5-(hydroxymethyl)tetrahydrofuran-2-yl)-2-oxo-1,2-dihydropyrimidin-4-yl)picolinamide], the “SI MERS-CoV” value with MERS-CoV is more than 55.56. The “SI DENV” value with DENV is listed as more than 138.89. Regarding `O=C(Nc1ccn([C@@H]2O[C@H](CO)[C@@H](O)C2(F)F)c(=O)n1)c1ccc(F)cn1` [Example 9, N-(1-((2R,4R,5R)-3,3-difluoro-4-hydroxy-5-(hydroxymethyl)tetrahydrofuran-2-yl)-2-oxo-1,2-dihydropyrimidin-4-yl)-5-fluoropicolinamide], in the series on DENV, the “SI DENV” value is more than 74.63.

Take `Cc1ccc(C(=O)Nc2ccn([C@@H]3O[C@H](CO)[C@@H](O)C3(F)F)c(=O)n2)nc1` [Example 10, N-(1-((2R,4R,5R)-3,3-difluoro-4-hydroxy-5-(hydroxymethyl)tetrahydrofuran-2-yl)-2-oxo-1,2-dihydropyrimidin-4-yl)-5-methylpicolinamide]: the “SI DENV” value in the series with DENV was more than 39.53. In the case of `Cc1cccnc1C(=O)Nc1ccn([C@@H]2O[C@H](CO)[C@@H](O)C2(F)F)c(=O)n1` [Example 12, N-(1-((2R,4R,5R)-3,3-difluoro-4-hydroxy-5-(hydroxymethyl)tetrahydrofuran-2-yl)-2-oxo-1,2-dihydropyrimidin-4-yl)-3-methylpicolinamide], the “SI DENV” value in the series on DENV is more than 16.23. On the same count and under the same terms, the value for `Cc1cccc(C(=O)Nc2ccn([C@@H]3O[C@H](CO)[C@@H](O)C3(F)F)c(=O)n2)n1` [Example 13, N-(1-((2R,4R,5R)-3,3-difluoro-4-hydroxy-5-(hydroxymethyl)tetrahydrofuran-2-yl)-2-oxo-1,2-dihydropyrimidin-4-yl)-6-methylpicolinamide] was more than 50.51; that for `O=C(Nc1ccn([C@@H]2O[C@H](CO)[C@@H](O)C2(F)F)c(=O)n1)c1cccc(-c2ccccc2)n1` [Example 17, N-(1-((2R,4R,5R)-3,3-difluoro-4-hydroxy-5-(hydroxymethyl)tetrahydrofuran-2-yl)-2-oxo-1,2-dihydropyrimidin-4-yl)-6-phenylpicolinamide] was more than 49.08. As to `Cl.Nc1ccc(C(=O)Nc2ccn([C@@H]3O[C@H](CO)[C@@H](O)C3(F)F)c(=O)n2)nc1` [Example 20, 5-amino-N-(1-((2R,4R,5R)-3,3-difluoro-4-hydroxy-5-(hydroxymethyl)tetrahydrofuran-2-yl)-2-oxo-1,2-dihydropyrimidin-4-yl)picolinamide-hydrochloride], the “SI DENV” value in the series with DENV was found to be 47.44.

Take `COc1ccc(C(=O)Nc2ccn([C@@H]3O[C@H](CO)[C@@H](O)C3(F)F)c(=O)n2)nc1` [Example 21, N-(1-((2R,4R,5R)-3,3-difluoro-4-hydroxy-5-(hydroxymethyl)tetrahydrofuran-2-yl)-2-oxo-1,2-dihydropyrimidin-4-yl)-5-methoxypicolinamide]: in the series on DENV, the “SI DENV” value is listed as more than 76.92.

`Cc1nccc(C(=O)Nc2ccn([C@@H]3O[C@H](CO)[C@@H](O)C3(F)F)c(=O)n2)n1` [Example 24, N-(1-((2R,4R,5R)-3,3-difluoro-4-hydroxy-5-(hydroxymethyl)tetrahydrofuran-2-yl)-2-oxo-1,2-dihydropyrimidin-4-yl)-2-methylpyrimidin-4-carboxamide]: in the series with DENV, the “SI DENV” value is listed as more than 46.12. Turning to `O=C(Nc1ccn([C@@H]2O[C@H](CO)[C@@H](O)C2(F)F)c(=O)n1)c1ccc(-c2ccccc2)cn1` [Example 25, N-(1-((2R,4R,5R)-3,3-difluoro-4-hydroxy-5-(hydroxymethyl)tetrahydrofuran-2-yl)-2-oxo-1,2-dihydropyrimidin-4-yl)-5-phenylpicolinamide], in the series on DENV, the “SI DENV” value is reported as more than 24.58. Take `Nc1ccn([C@@H]2O[C@H](CO)[C@@H](O)C2(F)F)c(=O)n1` [Gemcitabine, reference compound]: the “SI MERS-CoV” value in the series with MERS-CoV turned out to be 90.91. For the same compound, the “SI hCoV (229E)” value in the series with hCoV (229E) worked out at 227.27. In the series on FIPV, the “SI FIPV” value was determined as 4.38.
